Anti-infective test results gathered from many reports (values: NIAID ChemDB through PubChem).

All rows: tests on isolated targets; organism: HIV-1; protein: Reverse transcriptase; endpoint: inhibition

Two numbers with a dash give a range or band. An empty or dashed field is not shown. Percent inhibition refers to the dose given; in toxicity tests it is the harm to the cells. Rows are shuffled and stem from different studies.

structure,tested at,strain or isolate,read by,result
O=C(NCCc1ccccc1)NCc1ccoc1,0.1 µg/mL,,nucleotide incorporation,7%
CCCN1c2ccc(C)cc2N(C)C(=O)c2cc(Cl)nnc21,330 µM,,,27%
O=C(NCCc1ccccc1)Nc1cnccn1,0.1 µg/mL,,nucleotide incorporation,1%
CCS(=O)(=O)S(=O)(=O)N1c2ccccc2C=CC1C#N,50 µM,,nucleotide incorporation,≤30%
CCN1c2ccccc2N(C)C(=O)c2ccnnc21,330 µM,,,84%
Cc1cccc2sc(NC(=O)NCCc3ccccc3)nc12,1 µg/mL,,nucleotide incorporation,12%
CSc1ncccc1C(=O)N1c2ccccc2C=CC1C#N,50 µM,,nucleotide incorporation,≤30%
Cc1ccc2c(c1)N(CCC(C)C)C(=O)c1ccnnc1O2,330 µM,,ELISA,22%
CCN1C(=O)c2ccnnc2N(CC)c2ccccc21,330 µM,,,91%
COc1ccc2c(c1)C=CC(C#N)N2C(=O)c1ccco1,50 µM,,nucleotide incorporation,40.5%
CCCN1c2ccccc2N(C)C(=O)c2cc(Cl)nnc21,330 µM,,,55%
O=C1NC(c2c[nH]c3ccc(O)cc23)=C/C1=C1\C(=O)NC2C=CC=CC12,50 µM,,RT activity / ELISA,8.75%
Cc1ccc2c(c1)N(CC1CC1)C(=O)c1ccnnc1O2,330 µM,,ELISA,74%
N#CC1C=Cc2ccccc2N1C(=O)OCCOc1ccccc1,50 µM,,nucleotide incorporation,47.8%
N#Cc1csc(NC(=O)NCCc2ccccc2)n1,0.1 µg/mL,,nucleotide incorporation,72–73%
CCN1C(=O)c2ccnnc2Oc2ccc(C)cc21,33 µM,,ELISA,16%
CCCN1C(=O)c2cc(Cl)nnc2N(CC)c2ccc(C)cc21,33 µM,,,7%
O=C(NCCc1ccccc1)Nc1ccc(Cl)cc1,0.1 µg/mL,,nucleotide incorporation,4%
COc1ccc2c(c1)N(CC(C)C)C(=O)c1ccnnc1O2,330 µM,,ELISA,40%
CCOC(=O)N1c2ccc([N+](=O)[O-])cc2C=CC1C#N,50 µM,,nucleotide incorporation,48.9%
C/C1=C\C=C\C2(C)C=C(CO[C@H]3O[C@H](CO)[C@H](O)[C@H](O)[C@H]3O)C(C)CC23OC([O-])C(C3=O)C(O)/C=C/C2(C)C=C(C=O)C(C)CC23OC([O-])C(C3=O)C(O)/C(C)=C/C=C/C2C=C(CO[C@H]3O[C@H](CO)[C@H](O)[C@H](O)[C@H]3O)C(C)CC23OC([O-])C(C3=O)C(O)/C=C/C2(C)C=C(C=O)C(C)CC23OC([O-])C(C3=O)C1O,100 µg/mL,IIIB,RT activity,39.2%
O=C(NCCc1ccccc1)Nc1nc(C(F)(F)F)cs1,0.1 µg/mL,,nucleotide incorporation,63–68%
CCN1C(=O)c2cc(Cl)nnc2N(C2CC2)c2ccccc21,33 µM,,,15%
Cc1cc(C)c2c(c1)N(CC(C)C)C(=O)c1ccnnc1O2,33 µM,,ELISA,47%
CCCCN1C(=O)c2ccnnc2N(C2CC2)c2ccccc21,33 µM,,,0%
CCCCCN1C(=O)c2cc(Cl)nnc2Oc2ccc(C)cc21,330 µM,,ELISA,26%
N#CC1C=Cc2ccccc2N1C(=O)OCCCl,50 µM,,nucleotide incorporation,≤30%

3 of the rows above, restated:

structure,tested at,strain or isolate,read by,result
CCCCN1C(=O)c2ccnnc2N(C2CC2)c2ccccc21,33 µM,,,0%
N#Cc1csc(NC(=O)NCCc2ccccc2)n1,0.1 µg/mL,,nucleotide incorporation,72–73%
O=C(NCCc1ccccc1)Nc1ccc(Cl)cc1,0.1 µg/mL,,nucleotide incorporation,4%